Compound potency records, mixed from different reports. Data source: NIAID ChemDB in PubChem.

Shared fields: growth or infection tests; organism: HIV-1; read by: syncytia; endpoint: EC50

An empty or dashed field is not shown. ECn is the concentration giving n% inhibition of infection, replication or growth. Neighbouring rows are from separate reports.

structure,cell line,mutations,strain,value
Cc1cn([C@@H]2O[C@H](CO[Si](C)(C)C(C)(C)C)C3(OS(=O)(=O)C=C3N)[C@H]2O[Si](C)(C)C(C)(C)C)c(=O)n(C)c1=O,CEM,,IIIB,0.11 ± 0.08 µM
Cc1ccnc2c1NC(=O)c1cccnc1N2C1CC1,CEM,RT-E103K,IIIB,0.04 µg/mL
O=c1[nH]cnc2c1ncn2[C@H]1CC[C@@H](CO)O1,CEM,RT-L100I,IIIB-TIBO(0.5)(RT-L100I),8 µM
Cc1occc1C(=S)Nc1ccc(Cl)c(/C=N/OC(C)(C)C)c1,CEM,RT-K103N,IIIB,≥1 µg/mL
Cc1cn([C@H]2C[C@H](N=[N+]=[N-])[C@@H](CO)O2)c(=O)[nH]c1=O,HT4 + HeLa,,H1112-2 Clinical isolate zidovudine-susceptible,0.015 µM
Cc1cn([C@@H]2O[C@H](CO[Si](C)(C)C(C)(C)C)C3(OS(=O)(=O)C=C3N)[C@H]2O[Si](C)(C)C(C)(C)C)c(=O)n(C)c1=O,CEM,,IIIB,0.04 µM
Cc1cn([C@@H]2O[C@H](CO[Si](C)(C)C(C)(C)C)C3(OS(=O)(=O)C=C3N)[C@H]2O[Si](C)(C)C(C)(C)C)c(=O)n(C)c1=O,CEM,RT-Y181C,IIIB PYR(RT-Y181C),2.2 µg/mL
CC(C)Nc1cccnc1N1CCN(C(=O)c2cc3cc(NS(C)(=O)=O)ccc3[nH]2)CC1,CEM,RT-M184V,IIIB,0.003 µg/mL
Nc1ccn([C@H]2CC[C@@H](CO)O2)c(=O)n1,C8166,,RF,0.13 µM
C[C@@H](Cn1cnc2c(N)ncnc21)OCP(=O)(O)O,CEM,,HE,≥100 µM
CCOCn1c(Cc2ccccc2)c(CC)c(=O)[nH]c1=O,CEM,RT-Y181C,IIIB E-EBU(RT-Y181C),≥20 µg/mL
Nc1ncnc2c1ncn2[C@H]1CC[C@@H](CO)O1,MOLT-4/C8 + MOLT-4,,IIIB,4 µM
CCOCn1c(Cc2cc(C)cc(C)c2)c(CC)c(=O)[nH]c1=O,CEM,RT-L100I Y188H,IIIB TIBO R82913 STR-B22 (RT L100I Y188H),0.12 µM
CCc1cc(NCc2nc3c(Cl)ccc(Cl)c3o2)c(=O)[nH]c1C,CEM,RT-L100I,TIBO-1(RT-L100I),0.51 µM
CC(C)=CCN1Cc2cc(Cl)cc3[nH]c(=S)n(c23)C[C@@H]1C,CEM,RT-L100I,IIIB-TIBO(0.5)(RT-L100I),0.13 µg/mL
CCn1c(=O)c(C)cn([C@@H]2O[C@H](CO[Si](C)(C)C(C)(C)C)C3(OS(=O)(=O)C=C3N)[C@H]2O[Si](C)(C)C(C)(C)C)c1=O,CEM,RT-Y181C,IIIB PYR(RT-Y181C),>50 µg/mL
C=C(C)OC(=O)N1c2cc(Cl)ccc2NC(=S)C1(C)C,CEM,RT-L100I,TIBO-1(RT-L100I),0.053 µM
CCOCn1c(Cc2cc(C)cc(C)c2)c(CC)c(=O)[nH]c1=O,CEM,RT-L100I,IIIB BHAP(RT-L100I),0.03 µg/mL
Nc1ncnc2c1ncn2CC(CF)OCP(=O)(O)O,CEM,RT-K103N,IIIB TIBO R82913 STR-2 (RT K103N),2 µM
CCOCn1c(Cc2ccccc2)c(C(C)C)c(=O)[nH]c1=O,CEM,RT-L100I,IIIB,0.007 µg/mL
Cc1cn([C@H]2C[C@H](N=[N+]=[N-])[C@@H](CO)O2)c(=O)[nH]c1=O,CEM,RT-Y181C,IIIB-TSAO-m3T(10)(RT-Y181C),0.002 µM
O=C(O)P(=O)(O)O,HT4LACZ-1 + HT4 LacZ-1,RT-Q161L,LAI viral clone (RT-Q161L),203 µM
CCOCn1c(Sc2ccccc2)c(CC)c(=O)[nH]c1=O,CEM,RT-C181I,IIIB,0.97 µM
Nc1ncnc2c1ncn2CCOCP(=O)(O)O,CEM,RT-Y181C,IIIB-Nevirapine(1.0)(RT-Y181C),22 µM
CC(C)Nc1cccnc1N1CCN(C(=O)c2cc3cc(NS(C)(=O)=O)ccc3[nH]2)CC1,CEM,RT-V106A,IIIB,0.15 ± 0.07 µM
CC(C)Nc1cccnc1N1CCN(C(=O)c2cc3ccccc3[nH]2)CC1,CEM,RT-V106A,NEV(RT-V106A),0.88 µM
CCn1c(=O)c(C)cn([C@@H]2O[C@H](CO[Si](C)(C)C(C)(C)C)C3(OS(=O)(=O)C=C3N)[C@H]2O[Si](C)(C)C(C)(C)C)c1=O,CEM,RT-C181I,IIIB,>75 µM
O=C1N(Cc2ccccc2)c2cscc2S(=O)(=O)N1Cc1ccccc1,CEM,RT-K103N,,>10.4 µM
CC(C)=CCN1Cc2cc(Cl)cc3[nH]c(=S)n(c23)C[C@@H]1C,CEM,,IIIB,0.02 µM
Cc1ccnc2c1NC(=O)c1cccnc1N2C1CC1,CEM,,IIIB,0.033 ± 0.011 µM
CCc1cc(NCc2nc3c(Cl)ccc(Cl)c3o2)c(=O)[nH]c1C,CEM,RT-L100I,IIIB BHAP(RT-L100I),0.1 µg/mL
CCN1C(=O)N(Cc2cccc(Cl)c2)S(=O)(=O)c2cscc21,CEM,RT-K103N,,>56 µM
CC(C)=CCN1Cc2cc(Cl)cc3[nH]c(=S)n(c23)C[C@@H]1C,CEM,RT-C181I,IIIB,15 µM
Cc1cn([C@H]2C[C@H](N=[N+]=[N-])[C@@H](CO)O2)c(=O)[nH]c1=O,CEM,RT-Y181C,IIIB,0.001 µg/mL
Nc1ncnc2c1ncn2CCOCP(=O)(O)O,CEM,,IIIB,7 µM
Cc1occc1C(=S)Nc1ccc(Cl)c(C(=O)OC2CCCC2)c1,CEM,RT-E138K,IIIB,0.035 µg/mL
Cc1cn([C@@H]2O[C@H](CO[Si](C)(C)C(C)(C)C)[C@@]3(OS(=O)(=O)C=C3N)[C@H]2O[Si](C)(C)C(C)(C)C)c(=O)[nH]c1=O,CEM,RT-L100I E138K,IIIB TIBO R82913 STR-B02 (RT L100I E138K),3.5 µM
C[C@H](Cn1cnc2c(N)ncnc21)OCP(=O)(O)O,CEM,,IIIB,1 µg/mL
Cc1cn([C@@H]2O[C@H](CO[Si](C)(C)C(C)(C)C)C3(OS(=O)(=O)C=C3N)[C@H]2O[Si](C)(C)C(C)(C)C)c(=O)n(C)c1=O,CEM,RT-Y181C,IIIB,3.3 µM
C[C@H](Cn1cnc2c(N)nc(N)nc21)OCP(=O)(O)O,CEM,,HE,2 µM
Nc1ncnc2c1ncn2[C@H]1CC[C@@H](CO)O1,C8166,,IIIB,4 µM
COC(=O)[C@H](C)NP(=O)(OC[C@@H]1CC[C@H](n2cnc3c(N)ncnc32)O1)Oc1ccccc1,C8166,,IIIB,0.04 µM
Cc1ccnc2c1NC(=O)c1cccnc1N2C1CC1,CEM,RT-V106A,,3 µM
O=c1[nH]cnc2c1ncn2[C@H]1CC[C@@H](CO)O1,CEM,RT-V106A,IIIB,13.5 ± 9.2 µM
CC(C)Nc1cccnc1N1CCN(C(=O)c2cc3ccccc3[nH]2)CC1,CEM,RT-C181I,IIIB,>15 µM
CCN1C(=O)N(Cc2ccccc2)S(=O)(=O)c2cscc21,CEM,RT-Y188H,,>310.2 µM

Repeating the final 5 entries:

structure	cell line	mutations	strain	value
COC(=O)[C@H](C)NP(=O)(OC[C@@H]1CC[C@H](n2cnc3c(N)ncnc32)O1)Oc1ccccc1	C8166		IIIB	0.04 µM
Cc1ccnc2c1NC(=O)c1cccnc1N2C1CC1	CEM	RT-V106A		3 µM
O=c1[nH]cnc2c1ncn2[C@H]1CC[C@@H](CO)O1	CEM	RT-V106A	IIIB	13.5 ± 9.2 µM
CC(C)Nc1cccnc1N1CCN(C(=O)c2cc3ccccc3[nH]2)CC1	CEM	RT-C181I	IIIB	>15 µM
CCN1C(=O)N(Cc2ccccc2)S(=O)(=O)c2cscc21	CEM	RT-Y188H		>310.2 µM